# Results reported in patent publication US20190390248.
# T1: purified human fibrinogen, P02671
# T1 chain 1: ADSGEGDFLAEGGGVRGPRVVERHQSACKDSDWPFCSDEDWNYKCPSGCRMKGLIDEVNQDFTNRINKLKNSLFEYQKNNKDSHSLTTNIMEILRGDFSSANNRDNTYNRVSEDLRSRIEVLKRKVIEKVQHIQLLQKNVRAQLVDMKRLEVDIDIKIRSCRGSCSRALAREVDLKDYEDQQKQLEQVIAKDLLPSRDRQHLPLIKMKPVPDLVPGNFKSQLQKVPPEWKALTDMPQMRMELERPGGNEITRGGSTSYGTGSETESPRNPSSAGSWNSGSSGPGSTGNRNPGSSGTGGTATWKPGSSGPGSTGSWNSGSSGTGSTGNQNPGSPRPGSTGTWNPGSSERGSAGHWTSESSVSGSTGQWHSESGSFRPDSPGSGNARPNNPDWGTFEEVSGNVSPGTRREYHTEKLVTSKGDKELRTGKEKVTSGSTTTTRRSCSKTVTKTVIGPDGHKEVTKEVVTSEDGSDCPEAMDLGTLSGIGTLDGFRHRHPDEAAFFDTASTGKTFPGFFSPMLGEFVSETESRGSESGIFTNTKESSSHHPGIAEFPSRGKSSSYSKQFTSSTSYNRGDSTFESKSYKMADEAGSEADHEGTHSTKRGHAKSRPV
# T1 chain 2: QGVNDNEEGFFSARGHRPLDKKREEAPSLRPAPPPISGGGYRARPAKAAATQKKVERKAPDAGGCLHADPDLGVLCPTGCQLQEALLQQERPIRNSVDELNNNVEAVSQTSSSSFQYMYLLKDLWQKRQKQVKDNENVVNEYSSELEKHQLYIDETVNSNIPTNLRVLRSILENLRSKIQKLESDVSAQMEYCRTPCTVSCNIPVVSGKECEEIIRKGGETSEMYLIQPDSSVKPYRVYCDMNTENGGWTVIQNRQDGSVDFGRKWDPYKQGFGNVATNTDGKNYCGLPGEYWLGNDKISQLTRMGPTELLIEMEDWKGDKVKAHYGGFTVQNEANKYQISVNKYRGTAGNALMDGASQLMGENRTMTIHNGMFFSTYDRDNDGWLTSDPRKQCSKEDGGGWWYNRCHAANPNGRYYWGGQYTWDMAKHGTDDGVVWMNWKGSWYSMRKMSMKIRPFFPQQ
# T1 chain 3: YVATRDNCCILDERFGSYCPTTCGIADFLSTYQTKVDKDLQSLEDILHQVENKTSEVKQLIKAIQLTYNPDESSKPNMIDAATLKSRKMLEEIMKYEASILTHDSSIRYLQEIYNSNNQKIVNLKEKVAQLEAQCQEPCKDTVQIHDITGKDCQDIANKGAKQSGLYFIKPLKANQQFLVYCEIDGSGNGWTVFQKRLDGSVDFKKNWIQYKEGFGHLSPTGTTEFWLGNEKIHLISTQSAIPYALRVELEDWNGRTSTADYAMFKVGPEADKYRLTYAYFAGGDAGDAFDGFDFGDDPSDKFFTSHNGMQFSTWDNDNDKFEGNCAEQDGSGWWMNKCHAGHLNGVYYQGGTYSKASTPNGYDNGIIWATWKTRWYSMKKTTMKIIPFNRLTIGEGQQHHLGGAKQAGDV
# Tests used:
# [1] = target: T1, purified human fibrinogen, P02671
# [2] = target: descarboxyprothrombin, P00734
# [3] = target: human prothrombin, P00734
protein,measurement,setting,value
PtPA (prothrombin activator purified from Pseudonaja textilis venom) (protein) chain 1: AQLREYHIAAQLEDWDYNPQPEELSRLSESDLTFKKIVYREYELDFKQEKPRDELSGLLGPTLRGEVGDILIIYFKNFATQPVSIHPQSAVYNKWSEGSSYSDGTSDVERLDDAVPPGQSFKYVWNITAEIGPKKADPPCLTYAYYSHVNMVRDFNSGLIGALLICKEGSLNANGSQKFFNREYVLMFSVFDESKNWYRKPSLQYTINGFANGTLPDVQACAYDHISWHLIGMSSSPEIFSVHFNGQTLEQNHYKVSTINLVGGASVTANMSVSRTGKWLISSLVAKHLQAGMYGYLNIKDCGNPDTLTRKLSFRELRRIMNWEYFIAAEEITWDYAPEIPSSVDRRYKAQYLDNFSNFIGKKYKKAVFRQYKDSNFTKPTYAIWPKERGILGPVIRAKVRDTISIVFKNLASRPYSIYVHGVSVSKDAEGAIYPSDPKENITHGKAVEPGQVYTYKWTVLDTDEPTVKDSECITKLYHSAVDMTRDIASGLIGPLLVCKHKALSVKGVQNKADVEQHAVFAVFDENKSWYLEDNIKKYCSNPSTVKKDDPKFYKSNVMYTLNGYASDRTEVLGFHQSEVVEWHLTSVGTVDEIVPVHLSGHTFLSKGKHQDILNLFPMSGESATVTMDNLGTWLLSSWGSCEMSNGMRLRFLDANYDDEDEGNEEEEEDDGDIFADIFIPPEVVKKKEKDPVNFVSDPESDKIAKELGLLDDEDNQEESHNVQTEDDEEQLMIATMLGFRSFKGSVAEEELNLTALALEEDAHASDPRIDSNSARNPDDIAGRYLRTINRGNKRRYYIAAEEVLWDYSPIGKSQVRSRAAKTTFKKAIFRSYLDDTFQTPSTGGEYEKHLGILGPIIRAEVDDVIEVQFRNLASRPYSLHAHGLLYEKSSEGRSYDDKSPELFKKDDAIMPNGTYTYVWQVPPRSGPTDNTEKCKSWAYYSGVNPEKDIHSGLIGPILICQKGMIDKYNRTIDIREFVLFFMVFDEEKSWYFPKSDKSTRAEKLIGVQSRHTFPAINGIPYQLQGLTMYKDENVHWHLLNMGGPKDIHVVNFHGQTFTEEGREDNQLGVLPLLPGTFASIKMKPSKIGTWLLETEVGENQERGMQALFTVIDKDCKLPMGLASGIIQDSQISASGHVGYWEPKLARLNNTGKYNAWSIIKKEHEHPWIQIDLQRQVVITGIQTQGAMQLLKHLYTVEYFFTYSKDGQNWITFKGRHSETQMHFEGNSDGTTVKENHIDPPIIARYIRLHPTKFHNRPTFRIELLGCEVEGCSVPLGMESGAIKNSEITASSYKKTWWSSWEPSLARLNLKGRTNAWQPKVNNKDQWLQIDLQHLTKITSIITQGATSMTTSMYVKTFSIHYTDDNSTWKPYLDVRTSMEKVFTGNINSDGHVKHFFKPPILSRFIRIIPKTWNQYIALRIELFGCEVF chain 2: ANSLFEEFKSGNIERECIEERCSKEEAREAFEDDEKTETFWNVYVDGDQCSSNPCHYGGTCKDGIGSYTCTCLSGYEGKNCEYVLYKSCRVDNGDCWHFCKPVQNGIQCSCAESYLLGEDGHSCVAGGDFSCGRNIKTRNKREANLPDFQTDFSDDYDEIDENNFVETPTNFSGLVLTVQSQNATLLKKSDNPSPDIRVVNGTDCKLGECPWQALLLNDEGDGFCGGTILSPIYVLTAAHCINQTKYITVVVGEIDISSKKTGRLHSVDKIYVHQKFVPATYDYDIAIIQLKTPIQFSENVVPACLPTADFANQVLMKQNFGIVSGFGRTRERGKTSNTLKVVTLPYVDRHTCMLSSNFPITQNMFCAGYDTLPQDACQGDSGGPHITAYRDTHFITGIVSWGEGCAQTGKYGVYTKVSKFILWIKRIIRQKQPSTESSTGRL,"Clotting time, purified human fibrinogen sample (vii), 54 nM PtPA",[1],> 180 s
same,"Clotting time, Al(OH)3-adsorbed warfarin plasma sample (iv), 3.8 nM PtPA",[2],59.8 s
same,"Clotting time, Al(OH)3-adsorbed warfarin plasma sample (iv), 7.3 nM PtPA",[2],42.3 s
same,"Clotting time, Al(OH)3-adsorbed warfarin plasma sample (iv), 16 nM PtPA",[2],28.6 s
same,"Clotting time, Al(OH)3-adsorbed warfarin plasma sample (iv), 26 nM PtPA",[2],26.8 s
same,"Clotting time, Al(OH)3-adsorbed warfarin plasma sample (iv), 54 nM PtPA",[2],18.4 s
same,"Clotting time, warfarin plasma sample (iii), 3.8 nM PtPA",[2],55 s
same,"Clotting time, warfarin plasma sample (iii), 7.3 nM PtPA",[2],38.8 s
same,"Clotting time, warfarin plasma sample (iii), 16 nM PtPA",[2],24.6 s
same,"Clotting time, warfarin plasma sample (iii), 26 nM PtPA",[2],18.4 s
same,"Clotting time, warfarin plasma sample (iii), 54 nM PtPA",[2],15.6 s
same,"Clotting time, Factor V-deficient plasma sample (vi), 54 nM PtPA",[3],12.8 s
same,"Clotting time, Factor X-deficient plasma sample (v), 54 nM PtPA",[3],16.5 s
same,"Clotting time, recalcified citrated plasma sample (i), 3.8 nM PtPA",[3],48.2 s
same,"Clotting time, recalcified citrated plasma sample (i), 7.3 nM PtPA",[3],34.6 s
same,"Clotting time, recalcified citrated plasma sample (i), 16 nM PtPA",[3],22.5 s
same,"Clotting time, recalcified citrated plasma sample (i), 26 nM PtPA",[3],16.4 s
same,"Clotting time, recalcified citrated plasma sample (i), 54 nM PtPA",[3],12.8 s
same,fold more effective than carinactivase-1 (activation rate constants),[3],more than 200 times then carinactivase-1
same,fold more effective than carinactivase-2 (activation rate constants),[3],more than 20 times more effective than ecarin and carinactivase-2
same,fold more effective than ecarin (activation rate constants),[3],more than 20 times more effective than ecarin and carinactivase-2
same,fold more effective than notecarin (activation rate constants),[3],approximately 1000 times more effective than notecarin
same,Thrombin generation rate,[3]; scale: nmol thrombin/mL/min/µmol prothrombin/µmol activator,40.3
